## Sequence variants of PSTVd loop 15 after infection

PSTVd intermediate strain, loop 15: wild type GGAAACCGCUACUAC, pool pattern GGAAACCGNNNNNNC; upper and lower strand joined, each 5' to 3', the first 7 letters being the upper strand, closing pairs included.

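A pool of all variants was put on leaves of three Nicotiana benthamiana plants. Samples came from the inoculated region at 5 days, the leaf margin at 10 and upper systemic leaves at 12.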

Numbers give reads per thousand; 0 = not seen among the reads, higher = more abundant.
Each site shows the three plants.
"Pool" is the share in the plasmid pool used as inoculum, on the same scale.
The inoculated region was read from the minus strand, the other sites from the plus strand.
Samples held 43,870 to 66,106 reads, so the smallest values rest on one or two reads.
The authors trace changes outside the varied positions to PCR and sequencing errors or to mutation in the plant; presence does not show that a variant is infectious alone.
For reference, wild type rose from 33.9 per thousand in the pool to 202, 200, 159 (inoculated region), 724, 746, 710 (leaf margin) and 856, 883, 880 (systemic leaves).

GGAAACCGUACUGAC (pool 0.240): inoculated region 0.147 / 0.0321 / 0.133; leaf margin 0 / 0 / 0.0200; systemic leaves 0 / 0 / 0.
GGAAACCGGGACAGC (pool 0.144): inoculated region 0.0328 / 0.0964 / 0.133; leaf margin 0 / 0.0223 / 0; systemic leaves 0 / 0 / 0.
GGAAACCGGAGUGCC (pool 0.224): inoculated region 0.164 / 0.0643 / 0.114; leaf margin 0 / 0 / 0; systemic leaves 0 / 0 / 0.
GGAAACCGUAUAGGC (pool 0.208): inoculated region 0 / 0.0321 / 0.0571; leaf margin 0 / 0 / 0; systemic leaves 0 / 0 / 0.
GGAAACCGCACUAUC (pool 0.384): inoculated region 0.0328 / 0.193 / 0.114; leaf margin 0.0162 / 0 / 0.0601; systemic leaves 0 / 0 / 0.
GGAAACCGGGUUCCC (pool 0.272): inoculated region 0.0655 / 0.0321 / 0.0571; leaf margin 0.0162 / 0 / 0.0200; systemic leaves 0 / 0 / 0.
GGAAACCGUAACCCC (pool 0.336): inoculated region 0.0819 / 0.0964 / 0.0381; leaf margin 0 / 0.0223 / 0.0601; systemic leaves 0.0161 / 0 / 0.
GGAAACCGUCUUUUC (pool 0.208): inoculated region 0.0819 / 0.0803 / 0.0762; leaf margin 0 / 0 / 0.0200; systemic leaves 0 / 0 / 0.
GGAAACCGUGCCAUC (pool 0.208): inoculated region 0.131 / 0.177 / 0.228; leaf margin 0.0162 / 0 / 0; systemic leaves 0 / 0 / 0.
GGAAACCGCAGAUAC (pool 0.192): inoculated region 0.131 / 0.305 / 0.324; leaf margin 0.0808 / 0.111 / 0.120; systemic leaves 0.0161 / 0.106 / 0.0912.
GGAAACCGUGCUAAC (pool 0.128): inoculated region 0.0655 / 0.0964 / 0.0571; leaf margin 0 / 0.0445 / 0.0200; systemic leaves 0 / 0 / 0.
GGAAACCGCCAUGUC (pool 0.272): inoculated region 0.164 / 0.0964 / 0.0762; leaf margin 0 / 0.0223 / 0.0200; systemic leaves 0 / 0 / 0.
GGAAACCGGUUCUGC (pool 0.128): inoculated region 0.115 / 0.112 / 0.133; leaf margin 0 / 0.0223 / 0.0401; systemic leaves 0 / 0 / 0.
GGAAACCGCGUGUUC (pool 0.224): inoculated region 0.213 / 0.337 / 0.419; leaf margin 0.178 / 0.0445 / 0.0401; systemic leaves 0.0644 / 0.0303 / 0.0684.
GGAAACCGCGGUGGC (pool 0.208): inoculated region 0.197 / 0.0964 / 0.133; leaf margin 0 / 0.0445 / 0.0200; systemic leaves 0 / 0 / 0.
GGAAACCGGUCGUCC (pool 0.240): inoculated region 0.393 / 0.209 / 0.286; leaf margin 0.226 / 0.134 / 0.180; systemic leaves 0.0322 / 0 / 0.
GGAAACCGUAAUACC (pool 0.240): inoculated region 0.0983 / 0.112 / 0.0381; leaf margin 0 / 0 / 0.0601; systemic leaves 0.0161 / 0 / 0.
GGAAACCGUGGGAAC (pool 0.192): inoculated region 0.115 / 0.0643 / 0.0952; leaf margin 0 / 0 / 0.0801; systemic leaves 0 / 0 / 0.
GGAAACCGUGAGUCC (pool 0.288): inoculated region 0.442 / 0.353 / 0.552; leaf margin 0.0808 / 0.111 / 0.0801; systemic leaves 0.0322 / 0.0151 / 0.0684.
GGAAACCGUGCGCCC (pool 0.224): inoculated region 0.131 / 0.0643 / 0.152; leaf margin 0.0485 / 0 / 0; systemic leaves 0 / 0 / 0.
GGAAACCGUUGAACC (pool 0.160): inoculated region 0.0655 / 0.129 / 0.152; leaf margin 0 / 0 / 0.0200; systemic leaves 0 / 0 / 0.
GGAAACCGUGCACCC (pool 0.192): inoculated region 0.131 / 0.0964 / 0.133; leaf margin 0.0162 / 0.0445 / 0; systemic leaves 0 / 0 / 0.

Excerpt, the final 2 entries:

sequence	pool	inoculated region	leaf margin	systemic leaves
GGAAACCGUUGAACC	0.160	0.0655 / 0.129 / 0.152	0 / 0 / 0.0200	0 / 0 / 0
GGAAACCGUGCACCC	0.192	0.131 / 0.0964 / 0.133	0.0162 / 0.0445 / 0	0 / 0 / 0

Source: Wu et al. 2024 (doi:10.1371/journal.ppat.1012142), supplementary data.